Measured values from several laboratories, pooled; numbers as filed in NIAID ChemDB.

Common to all: growth or infection tests; organism: Cryptococcus neoformans; endpoint: EC50

ECn: concentration that inhibits the pathogen or its effect by n%. Blank or dashed fields: not listed here. Conditions beyond the fields shown may differ between rows.

SMILES,strain,method,result
C[n+]1c2cccc(O)c2cc2sc3ccccc3c21,ATCC 90113,broth dilution,>20 µg/mL
COc1cc2ccnc3c2c(c1OC(=O)c1ccccc1C)N(C)C=C3,,,15 µg/mL
NC(=O)c1cc[n+](Cc2ccc(C[n+]3ccc(/C=N/O)cc3)s2)cc1.[Cl-].[Cl-],,broth dilution,>20 µg/mL
CC(C)CC(C(=O)O)N1C(=O)CSC1c1ccccc1,,broth dilution,28.94 µM
C[C@@H]1[C@H](O)[C@@H](C)/C=C/C=C/C=C/C=C/C=C/C=C/C=C/[C@H](O[C@@H]2O[C@H](C)[C@@H](O)[C@H](N)[C@@H]2O)C[C@@H]2O[C@](O)(C[C@@H](O)C[C@@H](O)[C@H](O)CC[C@@H](O)C[C@@H](O)CC(=O)O[C@H]1C)C[C@H](O)[C@H]2C(=O)O,H99,broth dilution,>10 µg/mL
COc1cc2ccnc3c2c(c1OC(=O)c1ccc(F)c(F)c1)N(C)C=C3,,,>15 µg/mL
C[n+]1c2ccccc2cc2[nH]c3c(Br)cccc3c21.[I-],ATCC 90113,resazurin,>20 µg/mL
O=C(O)CN1C(=O)CSC1c1ccc(Cl)cc1,,broth dilution,77.51 µM
CC(C(O)(Cn1cncn1)c1ccc(F)cc1F)S(C)(=O)=O,R717 (AZOLE-R),,3.5 µM
COc1cc2ccnc3c2c(c1OC(=O)c1cccc(F)c1F)N(C)C=C3,,,>15 µg/mL
CN(c1ccc(Cl)cc1)c1cc2ccccc2[n+](C)c1.[I-],ATCC 90113,resazurin,>20 µg/mL
C[n+]1c2cccc(Cl)c2cc2sc3ccccc3c21,ATCC 90113,broth dilution,>20 µg/mL
O=C(O)C(Cc1ccccc1)N1C(=O)CSC1c1ccc(Cl)cc1,,broth dilution,49.8 µM
ON=Cc1ccc[n+](Cc2csc3ccccc23)c1.[Cl-],,broth dilution,>20 µg/mL
C=C1CC[C@@H]2C(C)(C)CCC[C@@]2(C)[C@@H]1CC/C(C)=C/Cn1c[n+](C)c2ncnc(NO)c21,ATCC 90113,resazurin,5.94 µg/mL
COc1cc2ccnc3c2c(c1OC(=O)c1ccc(C(C)(C)C)cc1)N(C)C=C3,,,1.5 µg/mL
COc1ccccc1C1SCC(=O)N1C(C)C(=O)O,,broth dilution,21.17 µM
NC(=O)c1cc[n+](Cc2ccc(C[n+]3ccc(C(N)=O)cc3)o2)cc1.[Br-].[Br-],,broth dilution,>20 µg/mL
CN(c1cccc(Cl)c1)c1cc2ccccc2[n+](C)c1.[I-],ATCC 90113,resazurin,>20 µg/mL
OC(Cn1cncn1)(Cn1cncn1)c1ccc(F)cc1F,Var. neoformans (isolate 45645),colony count,<1 µg/mL
O=C(O)CN1C(=O)CCSC1c1ccccn1,,broth dilution,30.27 µM
O/N=C/c1cccc[n+]1Cc1csc2ccccc12.[Cl-],,broth dilution,>20 µg/mL
COc1ccccc1C1SC(C)C(=O)N1C(Cc1ccccc1)C(=O)O,,broth dilution,82.64 µM
COc1cc2ccnc3c2c(c1OC(=O)c1cc(F)ccc1F)N(C)C=C3,,,>15 µg/mL
COc1ccccc1C1SCC(=O)N1C(CC(C)C)C(=O)O,,broth dilution,35.85 µM
COc1cc2ccnc3c2c(c1O)N(C)C=C3,,,>15 µg/mL

3 of the rows above, restated:

SMILES,strain,method,result
CC(C)CC(C(=O)O)N1C(=O)CSC1c1ccccc1,,broth dilution,28.94 µM
C[n+]1c2ccccc2cc2[nH]c3c(Br)cccc3c21.[I-],ATCC 90113,resazurin,>20 µg/mL
C[n+]1c2cccc(O)c2cc2sc3ccccc3c21,ATCC 90113,broth dilution,>20 µg/mL